Compound potency records, mixed from different reports. Data source: NIAID ChemDB in PubChem.

All rows: whole-cell or culture tests

Blank or dashed fields: not listed here.

smiles | species | strain | mutations | read by | setting | measure | tested at | result
CO[C@H]1/C=C/O[C@@]2(C)Oc3c(C)c(O)c4c(O)c(c(N5CCN(Cc6c(C)cc(C)cc6C)CC5)c(O)c4c3C2=O)NC(=O)/C(C)=C\C=C\[C@H](C)[C@H](O)[C@@H](C)[C@@H](O)[C@@H](C)[C@H](OC(C)=O)[C@@H]1C | Mycobacterium avium | 3337-4 | - | - | - | MBC | - | >16 µg/mL
Cc1ccc(Cn2cc(/C=N/Nc3nncs3)c3ccccc32)cc1 | Mycobacterium bovis BCG | 1173P2 | - | broth dilution | 48 h | MIC100 | - | 125 µg/mL
CCN1CCN(c2c(F)cc3c(=O)c(C(=O)O)cn(C4CC4)c3c2OC)CC1 | Mycobacterium smegmatis | KD1991 (GYRA D95Y) | - | - | - | MIC99 | - | 0.81 µg/mL
Cc1c(N2CCOCC2CN)c(F)cn2c(=O)c(C(=O)O)cc(C3CC3)c12.Cl | Mycobacterium smegmatis | ATCC114 | - | - | - | MIC | - | 0.05 µg/mL
NC[C@H]1O[C@H](O[C@H]2[C@H](O)[C@@H](O[C@H]3O[C@H](CO)[C@@H](O)[C@H](N)[C@H]3O)[C@H](N)C[C@@H]2N)[C@H](O)[C@@H](O)[C@@H]1O | Mycobacterium avium complex | Isolate C-40 | - | - | - | MIC | - | ≤12.5 µg/mL
CN(C)c1cc(NC(=O)CNC(C)(C)C)c(O)c2c1C[C@H]1C[C@H]3[C@H](N(C)C)C(=O)C(C(N)=O)=C(O)[C@@]3(O)C(=O)C1=C2O | Mycobacterium abscessus | x48 | - | broth dilution | - | MIC | - | 0.5 µg/mL
Nc1ccc(S(=O)(=O)c2ccc(N)cc2)cc1 | Mycobacterium ulcerans | Isolate 5155 | - | - | - | MIC | - | 2 µg/mL
O=C1c2cc(Cl)ccc2OP(=O)(c2ccccc2)N1c1ccc(Cl)c(Cl)c1 | Mycobacterium kansasii | My 6509/96 | - | - | 7 d | MIC | - | 16 µM
CC[C@H]1OC(=O)[C@H](C)[C@@H](O[C@H]2C[C@@](C)(OC)[C@@H](O)[C@H](C)O2)[C@H](C)[C@@H](O[C@@H]2O[C@H](C)C[C@H](N(C)C)[C@H]2O)[C@](C)(OC)C[C@@H](C)C(=O)[C@H](C)[C@@H](O)[C@]1(C)O | Mycobacterium abscessus | X6 | - | broth dilution | - | MIC | - | 1 µg/mL
CN[C@@H]1[C@H](O[C@H]2[C@H](O[C@H]3[C@H](O)[C@@H](O)[C@H](N=C(N)N)[C@@H](O)[C@@H]3N=C(N)N)O[C@@H](C)[C@]2(O)C=O)O[C@@H](CO)[C@H](O)[C@H]1O | Mycobacterium luteus | - | - | agar diffusion | - | MIC | - | 6.25 µg/mL
COc1c(N2CCNCC2)c(F)cc2c(=O)c(C(=O)O)cn(C3CC3)c12 | Mycobacterium smegmatis | KD1987 (GYRA A91V) | - | - | - | MIC99 | - | 0.41 µg/mL
CCCCN1C(=O)C2(C3=C(CN2C)C(=O)c2ccccc2C3=O)c2ccccc21 | Mycobacterium luteus | - | - | agar diffusion | - | zone | 50 µg/mL | 13 mm
O=C(Nc1ccc(C(F)(F)F)cc1)c1cc(Cl)ccc1OP(=O)(OCc1ccccc1)OCc1ccccc1 | Mycobacterium kansasii | My 235/80 | - | - | 14 d | MIC | - | 32 µM
CCCCCCN1C(=O)C2(C3=C(CN2C)C(=O)c2ccccc2C3=O)c2ccccc21 | Mycobacterium luteus | - | - | agar diffusion | - | zone | 50 µg/mL | 10 mm
CCCCCCCNC(=O)Nc1ccc(S(=O)(=O)Nc2cc(C)on2)cc1 | Mycobacterium kansasii | 6509/96 clinical isolate | - | broth dilution / absorbance | 14 d | MIC100 | - | 4 µM
CNc1ccc2oc(C[C@@H]3OC4(CC[C@@H]3C)O[C@H](C(C)C(=O)c3ccc[nH]3)[C@H](C)C[C@H]4C)nc2c1C(=O)O | Mycobacterium aurum | - | T125 insertion | resazurin | - | MIC | - | 0.64 µg/mL
Cc1ccc2c(c1)C1(C(=O)N2)C2=C(C(=O)c3ccccc3C2=O)C2CCCN21 | Mycobacterium luteus | - | - | agar diffusion | - | zone | 50 µg/mL | 11 mm
O=C(Nc1ccc(C(F)(F)F)cc1)c1cc(Br)ccc1OP(=O)(c1ccccc1)c1ccccc1 | Mycobacterium kansasii | My 235/80 | - | - | 7 d | MIC | - | 4 µM
Cc1cc(NS(=O)(=O)c2ccc(NC(=O)N(C(C)C)C(C)C)cc2)no1 | Mycobacterium kansasii | 6509/96 clinical isolate | - | broth dilution / absorbance | 7 d | MIC100 | - | 500 µM
NNC(=S)N/N=C/c1cn(Cc2ccc(Br)cc2)c2ccccc12 | Mycobacterium bovis BCG | 1173P2 | - | broth dilution | 48 h | MIC100 | - | >500 µg/mL
COc1nc2ccc(Br)cc2cc1[C@@H](c1ccccc1)[C@@](O)(CCN(C)C)c1cccc2ccccc12 | Mycobacterium aurum | - | C330 deletion | resazurin | - | MIC | - | 0.04 µg/mL
CC[C@@H](CO)NCCN[C@@H](CC)CO | Mycobacterium avium complex | 189-4 | - | - | - | MIC | - | 1.9 µg/mL
Cc1cc(NS(=O)(=O)c2ccc(NC(=O)Nc3ccc(S(=O)(=O)Nc4cc(C)on4)cc3)cc2)no1 | Mycobacterium kansasii | 6509/96 clinical isolate | - | broth dilution / absorbance | 14 d | MIC100 | - | 4 µM
C[C@H]1COc2c(N3CCC(O)C3)c(F)cn3c(=O)c(C(=O)O)cc1c23 | Mycobacterium smegmatis | ATCC114 | - | - | - | MIC | - | 25 µg/mL
C(=N\Nc1nncs1)/c1c[nH]c2ccccc12 | Mycobacterium bovis BCG | 1173P2 | - | broth dilution | 48 h | MIC100 | - | 7.81 µg/mL
O=C(Nc1ccc(Cl)cc1)c1cc(Cl)ccc1OP(=O)(Oc1ccccc1)Oc1ccccc1 | Mycobacterium kansasii | My 6509/96 | - | - | 21 d | MIC | - | 8 µM
CC(C)N1CCN(c2c(F)cc3c(=O)c(C(=O)O)cn(C4CC4)c3c2F)CC1 | Mycobacterium smegmatis | KD2008 (GYRA G89C) | - | - | - | MIC99 | - | 9.6 µg/mL
CNC(=O)Nc1ccc(S(=O)(=O)Nc2cc(C)on2)cc1 | Mycobacterium kansasii | 6509/96 clinical isolate | - | broth dilution / absorbance | 14 d | MIC100 | - | 16 µM
CC1CN(c2c(F)cc3c(=O)c(C(=O)O)cn(C4CC4)c3c2F)CCN1 | Mycobacterium smegmatis | KD1987 (GYRA A91V) | - | - | - | MIC99 | - | 0.46 µg/mL
CCNC(=O)Nc1ccc(S(=O)(=O)Nc2cc(C)on2)cc1 | Mycobacterium kansasii | 235/80 | - | broth dilution / absorbance | 14 d | MIC100 | - | 250 µM
Cc1c(N2CC[C@H](n3cccc3)C2)c(F)cn2c(=O)c(C(=O)O)cc(C3CC3)c12 | Mycobacterium smegmatis | ATCC114 | - | - | - | MIC | - | 0.78 µg/mL
CCCCCCCCCCNC(=O)Nc1ccc(S(=O)(=O)Nc2cc(C)on2)cc1 | Mycobacterium kansasii | 235/80 | - | broth dilution / absorbance | 7 d | MIC100 | - | 125 µM
O=C1C2=C(C(=O)c3ccccc31)C1(C(=O)Nc3ccc(Cl)cc31)N1CCCC21 | Mycobacterium luteus | - | - | agar diffusion | - | zone | 50 µg/mL | 10 mm
O=C(Nc1ccc(Cl)c(Cl)c1)c1cc(Cl)ccc1OP(=O)(OCc1ccccc1)OCc1ccccc1 | Mycobacterium kansasii | My 235/80 | - | - | 7 d | MIC | - | 62.5 µM
COc1c(N2CC(C)NC(C)C2)c(F)cc2c(=O)c(C(=O)O)cn(C3CC3)c12 | Mycobacterium smegmatis | KD2008 (GYRA G89C) | - | - | - | MIC99 | - | 0.91 µg/mL
NNC(=S)N/N=C/c1cn(Cc2ccccc2F)c2ccccc12 | Mycobacterium bovis BCG | 1173P2 | - | broth dilution | 48 h | MIC100 | - | >500 µg/mL
O=C(Nc1ccccc1)c1ccccc1OP(=O)(OCc1ccccc1)OCc1ccccc1 | Mycobacterium kansasii | My 235/80 | - | - | 14 d | MIC | - | 500 µM
Cc1c(N2CCC(N)CC2)c(F)cn2c(=O)c(C(=O)O)cc(C3CC3)c12 | Mycobacterium smegmatis | ATCC114 | - | - | - | MIC | - | 1.56 µg/mL
O=C1c2ccccc2OP(=O)(c2ccccc2)N1c1ccccc1 | Mycobacterium kansasii | My 6509/96 | - | - | 7 d | MIC | - | 500 µM
COc1cc(Cc2cnc(N)nc2N)cc(OC)c1Br | Mycobacterium ulcerans | Isolate 94-539 | - | - | - | MBC | - | 8 µg/mL
O=C1c2cc(Cl)ccc2OP(=O)(c2ccccc2)N1c1ccc(C(F)(F)F)cc1 | Mycobacterium kansasii | My 6509/96 | - | - | 14 d | MIC | - | 8 µM
COc1c(N2CCNC(C)C2)c(F)cc2c(=O)c(C(=O)O)cn(C3CC3)c12 | Mycobacterium smegmatis | KD1990 (GYRA D95A) | - | - | - | MIC99 | - | 0.22 µg/mL

For reference, 4 entries again:

smiles	species	strain	mutations	read by	setting	measure	tested at	result
Cc1cc(NS(=O)(=O)c2ccc(NC(=O)N(C(C)C)C(C)C)cc2)no1	Mycobacterium kansasii	6509/96 clinical isolate	-	broth dilution / absorbance	7 d	MIC100	-	500 µM
COc1c(N2CC(C)NC(C)C2)c(F)cc2c(=O)c(C(=O)O)cn(C3CC3)c12	Mycobacterium smegmatis	KD2008 (GYRA G89C)	-	-	-	MIC99	-	0.91 µg/mL
O=C(Nc1ccc(Cl)c(Cl)c1)c1cc(Cl)ccc1OP(=O)(OCc1ccccc1)OCc1ccccc1	Mycobacterium kansasii	My 235/80	-	-	7 d	MIC	-	62.5 µM
CO[C@H]1/C=C/O[C@@]2(C)Oc3c(C)c(O)c4c(O)c(c(N5CCN(Cc6c(C)cc(C)cc6C)CC5)c(O)c4c3C2=O)NC(=O)/C(C)=C\C=C\[C@H](C)[C@H](O)[C@@H](C)[C@@H](O)[C@@H](C)[C@H](OC(C)=O)[C@@H]1C	Mycobacterium avium	3337-4	-	-	-	MBC	-	>16 µg/mL

Conditions beyond the fields shown may differ between rows. Zone: diameter of growth inhibition. A number after MIC or MFC names an inhibition level or a share of isolates.